Test results taken from article PMC10208570, “Peptidomimetic antibiotics disrupt the lipopolysaccharide transport bridge of drug-resistant Enterobacteriaceae” (Science Advances, 2023).

Columns and labels:
[1] = molecular target: LptAm^Q62L (E. coli) (E. coli (ATCC 25922)); assay: fluorescence polarisation; indirect (competition) assay: unlabeled peptide or protein serially diluted into a 1:1 mixture of Lpt protein and 6-FL (2x stock 70 nM); 50 mM Na-Pi pH 7, 150 mM NaCl, 0.05% Tween 20; incubated overnight at 4°C, read at 25°C; triplicates; Ki from IC50 by Cheng-Prusoff
[2] = molecular target: LptAm (E. coli), monomeric truncated variant of LptA (E. coli (ATCC 25922)); assay: as above

B1: LptC^AA (E. coli), periplasmic domain LptC(25-191) Y60A R61A (domain or fragment)
chain: GAEKDDTAQVVVNNNDPTYKSEHTDTLVYNPEGALSAALIAQHVEYYSDQAVSWFTQPVLTTFDKDKIPTWSVKADKAKLTNDRMLYLYGHVEVNALVPDSQLRRITTDNAQINLVTQDVTSEDLVTLYGTTFNSSGLKMRGNLRSKNAELIEKVRTSYEIQNKQTQP
**Q.** Which Ki [1] does the source give for B1 here?
**A.** 26.7 µM

**Q.** What about the Ki [2] of the same binder?
**A.** 1.8 µM
